Taken from: PubChem BioAssay AID1259414 (Drosophila RNAi Screening Center, 2018)

Screen: 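Host factors increasing or decreasing Wolbachia levels in cultured fly cells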 (primary screen)
Cells: Drosophila JW18 cells infected with Wolbachia
Knock-down reagent: long dsRNA against Drosophila genes, 0.25 µg dsRNA per well of a 384-well plate
Timing: 5 days
Treatment: cells persistently infected with Wolbachia before knock-down; no added drug
Measured: 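Automated imaging of bacterial rRNA staining divided by host cell count, reported as plate-normalised robust z-score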
Reading the numbers: Wolbachia per cell robust z: higher = more Wolbachia per host cell than the plate typical
Active means: 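Active if absolute robust z reaches 1.5 in two or more of three replicates, leaving out multi- or no-target dsRNAs, genes unexpressed in JW18 and A1 wells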
The screen tested about 24,000 reagents; below is an unselected part of those that have a named target and a result. In the full data, about 1,210 (5%) were called active. 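Inactive calls also include excluded dsRNAs with several or no targets, genes unexpressed in JW18, and well A1, regardless of score.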 Reagent sequences are not shown.

The first 3 records, ahead of the listing:
Fbxl4 [DRSC19805] → Wolbachia per cell robust z, rep 1: 0.285; Wolbachia per cell robust z, rep 2: -4.87; Wolbachia per cell robust z, rep 3: 0.768; call: inactive
CG14448 [DRSC11705] → Wolbachia per cell robust z, rep 1: 0.14; Wolbachia per cell robust z, rep 2: 0.241; Wolbachia per cell robust z, rep 3: -0.0117; call: inactive
CG14448 [DRSC30062] → Wolbachia per cell robust z, rep 1: 0.548; Wolbachia per cell robust z, rep 2: 0.546; Wolbachia per cell robust z, rep 3: 0.584; call: inactive

Main list, from the first entry:
Fbxl4 [DRSC19805] → Wolbachia per cell robust z, rep 1: 0.285; Wolbachia per cell robust z, rep 2: -4.87; Wolbachia per cell robust z, rep 3: 0.768; call: inactive
CG14448 [DRSC11705] → Wolbachia per cell robust z, rep 1: 0.14; Wolbachia per cell robust z, rep 2: 0.241; Wolbachia per cell robust z, rep 3: -0.0117; call: inactive
CG14448 [DRSC30062] → Wolbachia per cell robust z, rep 1: 0.548; Wolbachia per cell robust z, rep 2: 0.546; Wolbachia per cell robust z, rep 3: 0.584; call: inactive
CG5180 [DRSC15731] → Wolbachia per cell robust z, rep 1: 0.197; Wolbachia per cell robust z, rep 2: 0.538; Wolbachia per cell robust z, rep 3: 0.057; call: inactive
pio [DRSC04386] → Wolbachia per cell robust z, rep 1: 0.806; Wolbachia per cell robust z, rep 2: -0.507; Wolbachia per cell robust z, rep 3: -0.357; call: inactive
pio [DRSC29371] → Wolbachia per cell robust z, rep 1: 0.472; Wolbachia per cell robust z, rep 2: 1.09; Wolbachia per cell robust z, rep 3: 0.909; call: inactive
Hs2st [DRSC03348] → Wolbachia per cell robust z, rep 1: -3.46; Wolbachia per cell robust z, rep 2: -0.726; Wolbachia per cell robust z, rep 3: 0.655; call: inactive
Dp [DRSC07402] → Wolbachia per cell robust z, rep 1: -7.26; Wolbachia per cell robust z, rep 2: 1.46; Wolbachia per cell robust z, rep 3: 2.33; call: inactive
Dp [DRSC40819] → Wolbachia per cell robust z, rep 1: 1.55; Wolbachia per cell robust z, rep 2: 2.16; Wolbachia per cell robust z, rep 3: 1.27; call: active
Zwilch [DRSC15376] → Wolbachia per cell robust z, rep 1: 1.06; Wolbachia per cell robust z, rep 2: 1.14; Wolbachia per cell robust z, rep 3: 0.146; call: inactive
Vm26Aa [DRSC03472] → Wolbachia per cell robust z, rep 1: 0.511; Wolbachia per cell robust z, rep 2: 0.0674; Wolbachia per cell robust z, rep 3: -5.58; call: inactive
Vm26Aa [DRSC25243] → Wolbachia per cell robust z, rep 1: -2.48; Wolbachia per cell robust z, rep 2: -0.244; Wolbachia per cell robust z, rep 3: -0.983; call: inactive
CG13039 [DRSC09920] → Wolbachia per cell robust z, rep 1: -0.232; Wolbachia per cell robust z, rep 2: -0.164; Wolbachia per cell robust z, rep 3: -0.716; call: inactive
CG6700 [DRSC02980] → Wolbachia per cell robust z, rep 1: 0.0598; Wolbachia per cell robust z, rep 2: -0.171; Wolbachia per cell robust z, rep 3: -0.107; call: inactive
CG6700 [DRSC25626] → Wolbachia per cell robust z, rep 1: 1.69; Wolbachia per cell robust z, rep 2: 1.16; Wolbachia per cell robust z, rep 3: 0.638; call: inactive
FASN3 [DRSC38779] → Wolbachia per cell robust z, rep 1: -0.0224; Wolbachia per cell robust z, rep 2: 0.94; Wolbachia per cell robust z, rep 3: 1.01; call: inactive
Not3 [DRSC04908] → Wolbachia per cell robust z, rep 1: 0.676; Wolbachia per cell robust z, rep 2: 0.272; Wolbachia per cell robust z, rep 3: 1.15; call: inactive
Not3 [DRSC27324] → Wolbachia per cell robust z, rep 1: 1.42; Wolbachia per cell robust z, rep 2: 0.0357; Wolbachia per cell robust z, rep 3: 0.783; call: inactive
CG18628 [DRSC10328] → Wolbachia per cell robust z, rep 1: -0.256; Wolbachia per cell robust z, rep 2: -0.417; Wolbachia per cell robust z, rep 3: -0.19; call: inactive
DAAM [DRSC18479] → Wolbachia per cell robust z, rep 1: -2.32; Wolbachia per cell robust z, rep 2: 0.0438; Wolbachia per cell robust z, rep 3: 0.25; call: inactive
CG4269 [DRSC04457] → Wolbachia per cell robust z, rep 1: 0.229; Wolbachia per cell robust z, rep 2: -0.687; Wolbachia per cell robust z, rep 3: 0.84; call: inactive
CG32117 [DRSC21652] → Wolbachia per cell robust z, rep 1: 0.97; Wolbachia per cell robust z, rep 2: -0.0456; Wolbachia per cell robust z, rep 3: -0.392; call: inactive
CG14422 [DRSC17919] → Wolbachia per cell robust z, rep 1: 0.943; Wolbachia per cell robust z, rep 2: 0.627; Wolbachia per cell robust z, rep 3: 0.591; call: inactive
CG14422 [DRSC25359] → Wolbachia per cell robust z, rep 1: 0.457; Wolbachia per cell robust z, rep 2: 1.55; Wolbachia per cell robust z, rep 3: -1.29; call: inactive
